We go through one substance from publication PMC2752837.

What all share (test): purified protein
Common to all, as to conditions: 50 mM CHES pH 9.5, 10 mM DTT, 37 °C

Data set [1] relates to N=C(N)NCCC[C@@H](N)C(=O)O.
The test system of data set [2] is CCOC(=O)[C@H](CCCNC(=N)N)NC(=O)c1ccccc1.
Data set [3] concerns N=C(N)NCCC[C@H](N)C(=O)NO.
The test system of the next data set is N=C(N)NCCCCN.
Another data set concerns N=C(N)NCCC[C@H](N)C(=O)O.

“truncated PAD (peptidylarginine deiminase, 43-amino acid N-terminal deletion) (Porphyromonas gingivalis W83)”: the Km result in data set [1] is recorded as “(1.9 ± 0.5)×10^3 µM”; in the data set on N=C(N)NCCCCN it was “(31 ± 1)×10^3 µM”; in the data set on N=C(N)NCCC[C@H](N)C(=O)O, “(1.2 ± 0.5)×10^3 µM”. For the same substance, the kcat in data set [1] came out at 0.058 s⁻¹; in data set [2], 0.019 s⁻¹; in the data set with N=C(N)NCCCCN, 0.007 s⁻¹; with N=C(N)NCCC[C@H](N)C(=O)O it was 0.22 s⁻¹. Also, the kcat/Km in data set [1] stood at 31 M⁻¹ s⁻¹; in data set [3], 22 M⁻¹ s⁻¹; in the data set on N=C(N)NCCCCN, 0.23 M⁻¹ s⁻¹; in the data set on N=C(N)NCCC[C@H](N)C(=O)O it was 190 M⁻¹ s⁻¹.
